Experiments:
[1] = target: Human immunodeficiency virus type 1 reverse transcriptase (Human immunodeficiency virus 1, UniProt Q72547, K103N); assay: Inhibition of HIV-1 p66/p51 reverse transcriptase K103N mutant incubated for 40 mins by picogreen dye-based spectrofluorometric analysis
[2] = target: Human immunodeficiency virus type 1 reverse transcriptase (Human immunodeficiency virus 1, UniProt Q72547, Y181C); assay: Inhibition of HIV-1 p66/p51 reverse transcriptase Y181C mutant incubated for 40 mins by picogreen dye-based spectrofluorometric analysis

Cc1cc(C#N)cc(C)c1Oc1nc(Nc2ccc(C#N)cc2)nc(N)c1Br [ETRAVIRINE]
EC50 [1]: 3.4 nM | EC50 [2]: 18.9 nM

From ChEMBL document CHEMBL4808181, “Hydrophobic Pocket Occupation Design of Difluoro-Biphenyl-Diarylpyrimidines as Non-Nucleoside HIV-1 Reverse Transcriptase Inhibitors: from N-Alkylation to Methyl Hopping on the Pyrimidine Ring” (J Med Chem, 2021)
